Patent US20220306729A1 (published 2022)

T1: DENV1 EDIII, polyhistidine-AviTag, made in HEK-293-6E cells (Dengue virus 1 (NC_001477))
T1 construct: also called EDIII of DENV1
T1 chain: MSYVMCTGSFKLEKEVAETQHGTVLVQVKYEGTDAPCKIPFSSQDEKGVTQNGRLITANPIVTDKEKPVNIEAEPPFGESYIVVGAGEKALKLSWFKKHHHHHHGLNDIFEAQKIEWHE

T2: WNV EDIII, polyhistidine-AviTag (West Nile virus)
T2 chain: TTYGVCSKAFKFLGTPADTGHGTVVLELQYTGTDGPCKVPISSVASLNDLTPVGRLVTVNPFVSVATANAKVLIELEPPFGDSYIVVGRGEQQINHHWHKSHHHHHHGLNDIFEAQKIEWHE


Key:
[1] = target: T1, DENV1 EDIII, polyhistidine-AviTag, made …; test: ELISA on EDIII (Table A)
[2] = target: T2, WNV EDIII, polyhistidine-AviTag; test: ELISA on EDIII (Table A)

Row | Binder | binding result [1] | binding result [2]
1 | Z002 (MEX18_27) (antibody, V domains shown) VH: EVQLLESGGGLVQPGGSLRLSCATSGFTFSTYAMSWVRQAPGKGLEWVSSFSGVDDSTYYAESVKGRFTISRDNSKNTVYLQMTRLRAEDTAVYYCAKDRGPRGVGELFDSWGQGTLVTVSS VL: DIQMTQSPSTLSASVGDRVTMTCRASQSINRWLAWYQQKPGKAPKLLIYTTSTLKSGVPSRFSGSGSGTEFTLTISSLQPDDFATYYCQHFHSVPWTFGQGTKVEIK | binds | no binding
2 | Z011 (MEX105_15) (antibody, V domains shown) VH: EVQLLESGGGLVQPGGSLRLSCAASGFTFRTYAMSWVRQPPGKGLEWVSSISAREDSTYFAASVRGRFTISRDNSKNTLYLQMNNLRAEDTALYYCAKDRLQLGVGELYESWGQGTLVTVSS VL: DIQMTQSPSTLSASVGDRVTITCRASQNINSWLAWYQQKPGKAPKLLIYMASSLQSGVPSRFSGSGSGTEFTLTVSSLQPDDFATYYCQHYHSYPWTFGQGTKVEIK | binds | no binding
3 | Z003 (MEX18_58) (antibody, V domains shown) VH: EVQLLESGGGLVQPGGSLRLSCATSGFTFTTFAMSWVRQAPGKGLEWVSSISGADDSTYYAASVKGRFTISRDNSRSTLFLQMNSLRAEDTAVYYCAKDRGPRGVGELFDSWGQGTLVTVSS VL: DIQMTQSPSTLSASVGDRVTITCRASQSISKWLAWYQQKPGKAPRLLIYTTSTLKSGVPSRFSGSGSGTEFTLTISSLQPDDFATYYCQHFFSVPWTFGQGTKVEIK | binds | no binding
4 | Z005 (MEX18_13) (antibody, V domains shown) VH: EVQLLESGGGLVQPGGSLRLSCAASGFTFSSYAMSWVRQAPGKGLEWVSSFSGIDDSTWYADSVKGRFTISRDNSKSTLYLQMNSLRAEDTAVYYCAKDRLVRGFAEVLDYWGRGTLVTVSS VL: DIQMTQSPSSLSASVGDRVTITCRASQDISKYLAWYQQRPGKVPNLLIYTASTLQSGVPSRFSGSGSGTHFTLTISSLQPEDVATYYCQKYNSVPWTFGQGTKVEIK | binds | no binding
5 | Z036 (BRA112_91) (antibody, V domains shown) VH: EVQLLESGGDLVQPGGSLRLSCAASGFTFSTYGMAWVRQAPGKGLEWLSSISSVDDSKYYAASVKGRFTISRDNSRNTLYLHMNSLRVDDTAVYYCAKDRIPHGLGELYANWGQGTLVTVSS VL: DIQMTQSPSTLSASVGDRVTITCRASQSISGWLAWYQQKPGKAPRLLMHKASNLYSGVPSRFSGSGSGTEFTLTISSLQPDDFATYYCQHYHSYPYTFGQGTKVEIK |  | no binding
6 | Z007 (MEX105_50) (antibody, V domains shown) VH: EVQLLESGGGLVRPGGSLRLSCTASGFTFRRYAMAWVRQAPGKGLEWVSLIYDGDDSTYYAKSVKGRFAISRDNSKNTLSLQMNSLRAEDTAVYYCVKDRDNGWSSIVDWGQGTLVTVSS VL: DIQMTQSPSTLSASVGDRVTITCRASHSISGWLAWYQQKPGKAPKLLIYQASILESGVPSRFSGSGSGTEFTLTIGSLQPEDFATYFCQQYSTFWTFGQGTKVEIK | binds | no binding
7 | Z009 (MEX105_64) (antibody, V domains shown) VH: EVQLLESGGGLVRPGGSLRLSCTASGFTFRRYAMAWVRQAPGKGLEWVSLIYNGDDSTYYAESVKGRFTVSRDNSQNTLSLQMNSLRAEDTAIYYCVRDRDNGWSSIVDWGQGTLVTVSS VL: DIQMTQSPSTLSASVGDRVTITCRASRTIGSWLAWYQQKPGKAPKLLIYQASILEGGVPSRFSGSVSGTEFTLTIRSLQPEDFATYFCQQYSTFWTFGQGTKVEIK | binds | no binding
8 | Z008 (MEX105_60) (antibody, V domains shown) VH: EVQLLESGGGLVRPGGSLRLSCTASGFTFRRFAMAWVRQAPGKGLEWVSLIWNGDDSTYYAESVRGRFTISRDNSHNTLSLQMRSLRAEDTAIYYCVKDRDNGWSSIVDWGQGTLVTVSS VL: DIQMTQSPSTLSASVGDRVTITCRASQTIGNWLAWYQQKPGKAPKLLIYQASVLESGVPSRFSGSGSGTEFTLTISSLQPEDFATYFCQQYSTFWTFGQGTKVEIK | binds | no binding
